# Screening data, single-dose tests

Data taken from ChEMBL document CHEMBL3988442, “University of Dundee, Small-Polar-MMV Screening Library” (2021).

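Phenotypic screen: M. tuberculosis growth, glucose 7H9 medium, 3 days; the read-out is not stated. Tested at 50 µM. Higher reads as more growth inhibition (inferred: compounds with an IC50 in retests scored well above the rest). Of about 69,000 compounds tested this way, about 760 (1.1%) reached 50% or more in at least one test.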

The filed quantity is “Percent Effect” (%).
The controls that fix the scale are not given in the record; negative values are as filed.
The entries come from a sample that favours strong results.
Two or more numbers in one place are separate tests of the same structure; such repeats can differ widely.

| compound | effect |
|---|---|
| `COCc1nn(Cc2ccc(Br)s2)c(=O)o1` | 53.29 |
| `O=C(NCCNc1ncccn1)c1ccc(Cl)s1` | 21.37 |
| `Cn1ccnc1CN1CCC2(CC1)CN(c1cncnc1)C(=O)CO2.O=C(O)C(F)(F)F` | -18.54 |
| `Cc1n[nH]c(SCC(=O)NC(c2ccncc2)C(C)C)n1` (stereo unspecified) | 11.88 |
| `OC1CCN(C2CCN(c3ccc(Cn4ccnc4)cn3)CC2)CC1` | -30.27 |
| `COc1ccc(C)cc1C(C)NC(=O)CCn1cncn1` (stereo unspecified) | -10.75 |
| `[H][C@@]12CCN(C(=O)c3cnoc3C)C[C@]1([H])[C@@H](CN1CCCC1)OC2` | 54.1 |
| `O=S(=O)(CCc1ccccc1)Cc1nc(C2CC2)no1` | 51.75 & 54.9 |
| `CCc1c(C(=O)NCC2CCS(=O)(=O)C2)cnn1-c1ccc(C)cc1` (stereo unspecified) | 3.03 |
| `CS(=O)(=O)c1ccc2c(c1)N(C(=O)Cc1ccc(F)cc1)CCC2` | -27.48 |
| `[H][C@]12CC[C@]([H])(CN(Cc3ccc(Cn4cccn4)cc3)C1)N(CCC)C2` | 38.83 |
| `N#Cc1cnc2c(F)cc(F)cc2c1NC1CCN(CC(N)=O)CC1` | -33.28 & -3.89 |
| `O=C(Nc1ccc(-n2cccn2)cc1)N1CCC(O)C1` (stereo unspecified) | -12.15 |
| `CC(NC(=O)c1cccs1)C(=O)NCc1ccccn1` (stereo unspecified) | -0.587 |
| `OC1(CN2CCC(Oc3cccc(C(F)(F)F)c3)CC2)CCNC1` (stereo unspecified) | 74.22 |
| `Cc1ccccc1OCCN(C)Cc1noc(CC(C)C)n1` | 50.71 |
| `Cc1ccc(C(=O)N2CCCN(C)c3ccc(F)cc32)o1` | -13.77 |
| `Cc1cnc(N2CCc3c(CN(C)Cc4ccco4)cncc3C2)nc1` | 18.92 |
| `Cc1cccc(N(CC(=O)N2CCCCC2)C(=O)C2CCCO2)c1` (stereo unspecified) | 11.91 |
| `Cc1nc(CCN)cc(N2CCOc3ccc(Cl)cc3C2)n1` | 54.98 |
| `Cc1ccc(C(C)N(C)CCS(=O)(=O)CCC(N)=O)cc1` (stereo unspecified) | 12.19 |
| `CCCc1cc(C(=O)NCCN2C(=O)c3ccccc3C2=O)[nH]n1` | 34.42 |
| `Nc1nnnn1NCc1ccccc1C(F)(F)F` | 7.946 |
| `CN(C1CCCCC1)S(=O)(=O)N1CCN(Cc2ccco2)CC1` | -3.413 & 8.808 |
| `Cc1cc(C2CCCN(C(=O)c3c(C)noc3C)C2)n[nH]1` (stereo unspecified) | -3.421 & 53.88 |
| `COc1ccc(CC(C)Nc2cccc(SC)c2)cc1` (stereo unspecified) | 44.26 |
| `O=C(CCN1CCCC(CO)(CC2CC2)C1)NCc1cccc(Cl)c1` (stereo unspecified) | 83.71 & 1.134 |
| `O=C(C[S+]([O-])Cc1cccc(Cl)c1)NC1CCCC1` (stereo unspecified) | 12.01 |
| `COc1c(Br)cccc1CCNC(=O)c1ccon1` | 23.21 & 45.82 |
| `Cn1ccnc1CN(Cc1ccccn1)Cc1ccccc1Cl.O=C(O)CC(O)(CC(=O)O)C(=O)O` | 74.57 |
| `COC[C@@H]1CCC[C@@]12CN(C(=O)N1CCCC1)CCO2` | 52.26 |
| `COCc1nc(N(C)C)ncc1C(=O)Nc1cc(C)cc(C)c1` | 54.52 |
| `CNc1cc(N2CCCC2CNCc2c[nH]nc2C(C)(C)C)ncn1` (stereo unspecified) | -9.785 |
| `Cc1nc(N2CCOCC2)nc2c1CCN(Cc1cccnc1)CC2.O=C(O)C(F)(F)F` | -3.528 |
| `Cc1nc2ccccc2nc1CN(C)C1CCCN(c2cccnn2)C1` (stereo unspecified) | 4.709 |
| `Cc1ccccc1SCC(=O)NC1CCC(O)CC1` (stereo unspecified) | -15.31 |
| `c1cc(-c2cncnc2)cc(-c2ccn(CC3CCNC3)n2)c1` (stereo unspecified) | 16.69 |
| `CN(C)c1ccc(-c2cc(C(=O)O)cc(S(=O)(=O)NC3CC3)c2)cc1` | 25.21 |
| `[H][C@@]12CN(c3cccnc3)CC[C@]1([H])CN(c1ncccn1)C2` | -0.4759 |
| `CCn1cc(CN(C)S(=O)(=O)c2ccc(C(C)C)cc2)cn1` | 62.73 |
| `Cc1cccc(OCCNC(=O)CN2CCCC2Cn2cncn2)c1` (stereo unspecified) | 8.426 |
| `CCCOc1cc(CNC(=O)Nc2ccccn2)ccn1` | -5.761 |
| `Cc1nc2ccccc2c(=O)n1CCC(=O)N1CCCC1` | 8.497 |
| `COC(=O)c1ccc(N2CCC(N(C)c3ccccc3)CC2)nn1` | 116.1 |
| `COCC(=O)NC[C@H]1CC[C@H](c2ccnc3ncnn32)CC1` | -5.143 |
| `CNC(=O)NC(=O)CCN1CCN(c2nccs2)CC1` | 16.15 |
| `COCc1noc(-c2nn(-c3ccccc3F)c3c2CCC3)n1` | 45.95 |
| `COc1ccc(C)cc1CN1CCCC1c1noc(C2CC2)n1` (stereo unspecified) | 52.46 |
| `CC(Cn1cc(Br)cn1)C(=O)Nc1ccc(C(N)=O)cc1` (stereo unspecified) | 6.473 |
| `CN1CCN(C(=O)C2CCN(c3cccnn3)C2)CC1` (stereo unspecified) | -12.48 |
| `Cc1ccc(CN(CCCN(C)C)Cc2cnc(C)n2C)o1.O=C(O)CC(O)(CC(=O)O)C(=O)O` | 20.7 |
| `CCc1nccn1CCNC1CCN(c2nc3ccc(Cl)cc3s2)CC1` | 77.71 |
| `OCC(O)CSCc1nnc(-c2cccc(F)c2)o1` (stereo unspecified) | -1.053 |
| `CCC(C)CS(=O)(=O)NCCc1csc(N2CCCC2)n1` (stereo unspecified) | 4.245 |
| `CC(CNS(N)(=O)=O)c1ccc(F)c(F)c1` (stereo unspecified) | -2.425 & -3.701 |
| `COc1ccc(CN2CCOC[C@H](OCc3ccccc3)C2)cc1` | 26.03 & 17.56 |
| `Cc1ccc2cc(C(=O)N3CCS(=O)(=O)CC3)[nH]c2c1` | -2.055 |
| `CCOc1ccc(Cl)cc1CCNC(=O)Cn1ccccc1=O` | -11.31 |
| `OC(COCc1cccs1)Cn1cc(Br)cn1` (stereo unspecified) | 7.768 & 12.93 |
| `Cc1cccnc1NC(=O)C1(n2cnnn2)CCCCC1` | 7.531 |
| `CC(Cn1cccn1)NCc1nc(-c2ccccn2)no1` (stereo unspecified) | -14.55 |
| `CCOC(=O)CN(CC(F)(F)F)C(=O)c1nc(C)n2ccccc12` | 2.526 & -12.14 |
| `Cc1ccc(CNCC2Cn3nnc(-c4cnn(C)c4)c3CO2)o1` (stereo unspecified) | -46.43 |
| `O=C(O)C(F)(F)F.[H][C@@]12CN(Cc3nccs3)C[C@]1([H])C(=O)N(c1ccsc1)C2` | 23.12 |
| `CN(Cc1nc(N)c2ccccc2n1)C1CCCN(c2cccnn2)C1` (stereo unspecified) | 50.84 |
| `COC(=O)c1cccc(C(=O)N(C)Cc2ccsc2)c1` | -27.47 |
| `O=C(O)C(F)(F)F.O=C(O)C(F)(F)F.[H][C@@]12CN(Cc3ccccn3)C[C@]1([H])C(=O)N(c1ccsc1)C2` | 3.415 |
| `COc1ccc2[nH]c(C(=O)NCC3(N)CCCC3)cc2c1` | 8.47 |
| `COCC(C)(CCO)NC(=O)Nc1cccc(Br)c1C` (stereo unspecified) | -39.19 |
| `CC(Cn1cc(Br)cn1)C(=O)Nc1ccn(C)n1` (stereo unspecified) | -51.29 |
| `CC(=O)NCc1noc2c1CN(Cc1cccs1)CC2` | 4.378 & -14.37 |
| `Cc1ccc(CN(CCCn2ccnc2)Cc2cnn(C)c2)s1.O=C(O)CC(O)(CC(=O)O)C(=O)O` | 24.54 |
| `CCc1ncc(C(=O)N2CCN(c3nc(C)cc(OC)n3)CC2)s1` | -1.668 & 14.2 |
| `COc1ccccc1OC1CN(C(=O)c2ccc(C(C)=O)s2)C1` | 14.39 |
| `Cc1ccc(N2CCc3c(CN(C)Cc4ccco4)cncc3C2)nn1.Cl.Cl` | 52.5 |
| `CC(C)Oc1ccc(C(O)CNCc2ccccc2C(F)(F)F)cc1` (stereo unspecified) | 36.97 |
| `COC(=O)CNC(=O)c1scnc1C` | -9.509 |
| `FC(F)(F)c1ccc2nc([C@H]3CCN(C4CCC4)C3)[nH]c2c1` | 32.85 & 3.753 |
| `N#Cc1ccc(SCCOCCO)c(F)c1` | 18.81 |
| `Cc1ccn(-c2ccccc2NCc2cscn2)n1` | 35.28 & 13.29 |
| `O=C(Cc1cccs1)NC1CCN(c2cccc(F)c2)CC1` | 5.533 & 3.271 |
| `CC(C)CC(=O)N1CCC2(CC1)OCCO2` | -19.55 |
| `COCCNS(=O)(=O)c1cccc2c1CN(C(=O)c1cc(C)on1)CC2` | 12.02 & -1.045 |
| `CCOCCNC(=O)Nc1ccc(OCc2noc(C3CC3)n2)cc1` | 80.04 & -9.059 |
| `Cc1c(CN2CCc3[nH]cnc3C2C2CC2)[nH]c2ccc(F)cc12` (stereo unspecified) | 18.13 & 42.44 |
| `CNc1nc2c(s1)C(c1ccc(F)cc1Cl)CC(=O)N2` (stereo unspecified) | 36.85 |
| `Cc1cc(Cc2ccccc2F)cc(C2CCCNC2)n1` (stereo unspecified) | 8.744 |
| `Cc1nnc(CN(C)C2CCN(c3cccc(-c4cscn4)c3)CC2)o1` | 17.94 |
| `CC(C)Oc1cccc(CNC(Cc2ccsc2)c2nccs2)c1.Cl` (stereo unspecified) | 22.47 |

Repeated from the top, 5 entries:

With COCc1nn(Cc2ccc(Br)s2)c(=O)o1 the screen gave 53.29%.
With O=C(NCCNc1ncccn1)c1ccc(Cl)s1 the screen gave 21.37%.
With Cn1ccnc1CN1CCC2(CC1)CN(c1cncnc1)C(=O)CO2.O=C(O)C(F)(F)F the screen gave -18.54%.
With Cc1n[nH]c(SCC(=O)NC(c2ccncc2)C(C)C)n1 (stereo unspecified) the screen gave 11.88%.
With OC1CCN(C2CCN(c3ccc(Cn4ccnc4)cn3)CC2)CC1 the screen gave -30.27%.